Results taken from PMC8591608, “DNDI-6148: A Novel Benzoxaborole Preclinical Candidate for the Treatment of Visceral Leishmaniasis” (Journal of Medicinal Chemistry, 2021).

These compounds were tested on MRC5 (assay: MRC5 cytotoxicity assay). Conditions: Table 4; selectivity index, ratio of CC50/EC50 (L. infantum).
Type: cell-based, human
Description: Primary peritoneal mouse macrophages (PMM) were collected two days after peritoneal stimulation with a 2% potato starch suspension. MRC5SV2 cells (diploid human embryonic lung fibroblasts) were cultured in minimal essential medium (MEM) containing Earle’s salts, supplemented with L-glutamine, NaHCO3, and 5% inactivated fetal calf serum. All cultures and assays were conducted at 37 °C under an atmosphere of 5% CO2.
Assays were performed in sterile 96-well microtiter plates, each well containing 10 μL of the compound dilution and 190 μL of MRC5SV2 or PMM inoculum (3 × 10^4 cells/mL). Cell growth was compared to untreated controls (100% growth) and assay-media controls (0% growth). After three-day incubation, cell viability was assessed fluorometrically by adding resazurin (50 μL/well of a stock solution in phosphate buffer (50 μg/mL)), incubating for 4 h and measuring fluorescence (λex 550 nm, λem 590 nm). The results were expressed as a percentage reduction in cell growth compared to untreated control wells. […] Tamoxifen was included as the reference drug.

Structure (SMILES)	MRC5 SI
O=C(Nc1ccc2c(c1)B(O)OC2)c1ccc(F)cc1C(F)(F)F [Compound 3]	>24
O=C(Nc1ccc2c(c1)B(O)OC2)c1cn(C(F)(F)F)nc1C(F)(F)F [Compound 4, N-(1-Hydroxy-1,3-dihydrobenzo[c][1,2]oxaborol-6-yl)-1,3-bis(trifluoromethyl)-1H-pyrazole-4-carboxamide]	>31
O=C(Nc1ccc2c(c1)B(O)OC2)c1cn(CC(F)(F)F)nc1C(F)(F)F [Compound 5, N-(1-Hydroxy-1,3-dihydrobenzo[c][1,2]oxaborol-6-yl)-1-(2,2,2-trifluoroethyl)-3-(trifluoromethyl)-1H-pyrazole-4-carboxamide]	>40
Cc1nn(CCC(F)(F)F)cc1C(=O)Nc1ccc2c(c1)B(O)OC2 [Compound 7, N-(1-Hydroxy-1,3-dihydrobenzo[c][1,2]oxaborol-6-yl)-3-methyl-1-(3,3,3-trifluoropropyl)-1H-pyrazole-4-carboxamide]	>11
Cc1nn(C2CCC2)cc1C(=O)Nc1ccc2c(c1)B(O)OC2 [Compound 8, Cyclobutyl-N-(1-hydroxy-1,3-dihydrobenzo[c][1,2]oxaborol-6-yl)-3-methyl-1H-pyrazole-4-carboxamide]	>4
O=C(Nc1ccc2c(c1)B(O)OC2)c1cn(C2CCOCC2)nc1C(F)(F)F [Compound 10, N-(1-Hydroxy-1,3-dihydrobenzo[c][1,2]oxaborol-6-yl)-1-(tetrahydro-2H-pyran-4-yl)-3-(trifluoromethyl)-1H-pyrazole-4-carboxamide]	>21
Cc1nn(-c2ccccn2)cc1C(=O)Nc1ccc2c(c1)B(O)OC2 [Compound 11, N-(1-Hydroxy-1,3-dihydro-2,1-benzoxaborol-6-yl)-3-methyl-1-(pyridine-2-yl)-1H-pyrazole-4-carboxamide]	>11
Cc1c(C(=O)Nc2ccc3c(c2)B(O)OC3)cnn1CCC(F)(F)F [Compound 15, N-(1-Hydroxy-1,3-dihydrobenzo[c][1,2]oxaborol-6-yl)-5-methyl-1-(3,3,3-trifluoropropyl)-1H-pyrazole-4-carboxamide]	>5
Cn1nc(-c2ccccn2)cc1C(=O)Nc1ccc2c(c1)B(O)OC2 [Compound 20, N-(1-Hydroxy-1,3-dihydrobenzo[c][1,2]oxaborol-6-yl)-1-methyl-3-(pyridin-2-yl)-1H-pyrazole-5-carboxamide]	>2
CCCCCCCCCCCCCCCCOP(=O)([O-])OCC[N+](C)(C)C [miltefosine, reference compound]	>6.2

Same assay, conditions: Table 5; selectivity index, ratio of CC50/EC50 (L. infantum)

Structure (SMILES)	MRC5 SI
Cc1c(C(=O)Nc2ccc3c(c2)B(O)OC3)nnn1-c1ccccn1 [Compound 23, N-(1-Hydroxy-1,3-dihydrobenzo[c][1,2]oxaborol-6-yl)-5-methyl-1-(pyridin-2-yl)-1H-1,2,3-triazole-4-carboxamide]	>39
Cc1c(C(=O)Nc2ccc3c(c2)B(O)OC3)nnn1-c1ccccc1 [Compound 24, N-(1-Hydroxy-1,3-dihydrobenzo[c][1,2]oxaborol-6-yl)-5-methyl-1-phenyl-1H-1,2,3-triazole-4-carboxamide]	>1.7
COc1cccc(-n2nnc(C(=O)Nc3ccc4c(c3)B(O)OC4)c2C)n1 [Compound 25, N-(1-Hydroxy-1,3-dihydrobenzo[c][1,2]oxaborol-6-yl)-1-(6-methoxypyridin-2-yl)-5-methyl-1H-1,2,3-triazole-4-carboxamide]	>80
Cc1cccc(-n2nnc(C(=O)Nc3ccc4c(c3)B(O)OC4)c2C)n1 [Compound 26, N-(1-Hydroxy-1,3-dihydrobenzo[c][1,2]oxaborol-6-yl)-5-methyl-1-(6-methylpyridin-2-yl)-1H-1,2,3-triazole-4-carboxamide]	>10
Cc1c(C(=O)Nc2ccc3c(c2)B(O)OC3)nnn1-c1cccnc1 [Compound 27, N-(1-Hydroxy-1,3-dihydrobenzo[c][1,2]oxaborol-6-yl)-5-methyl-1-(pyridin-3-yl)-1H-1,2,3-triazole-4-carboxamide]	>1.8
O=C(Nc1ccc2c(c1)B(O)OC2)c1nnc(-c2ccccn2)o1 [Compound 31, N-(1-Hydroxy-1,3-dihydrobenzo[c][1,2]oxaborol-6-yl)-5-(pyridin-2-yl)-1,3,4-oxadiazole-2-carboxamide]	>32

Same assay, conditions: Table 6 (L. donovani table); selectivity index, ratio of CC50/EC50

Structure (SMILES)	MRC5 SI
O=C(Nc1ccc2c(c1)B(O)OC2)c1cn(CC(F)(F)F)nc1C(F)(F)F [Compound 5, N-(1-Hydroxy-1,3-dihydrobenzo[c][1,2]oxaborol-6-yl)-1-(2,2,2-trifluoroethyl)-3-(trifluoromethyl)-1H-pyrazole-4-carboxamide]	>64
Cc1c(C(=O)Nc2ccc3c(c2)B(O)OC3)cnn1-c1ccccn1 [Compound 16, N-(1-Hydroxy-1,3-dihydrobenzo[c][1,2]oxaborol-6-yl)-5-methyl-1-(pyridin-2-yl)-1H-pyrazole-4-carboxamide]	52
Cc1c(C(=O)Nc2ccc3c(c2)B(O)OC3)nnn1-c1ccccn1 [Compound 23, N-(1-Hydroxy-1,3-dihydrobenzo[c][1,2]oxaborol-6-yl)-5-methyl-1-(pyridin-2-yl)-1H-1,2,3-triazole-4-carboxamide]	>46
Cc1c(-c2ccccn2)coc1C(=O)Nc1ccc2c(c1)B(O)OC2 [Compound 28, N-(1-Hydroxy-1,3-dihydrobenzo[c][1,2]oxaborol-6-yl)-3-methyl-4-(pyridin-2-yl)furan-2-carboxamide]	45
O=C(Nc1ccc2c(c1)B(O)OC2)c1nnc(-c2ccccn2)o1 [Compound 31, N-(1-Hydroxy-1,3-dihydrobenzo[c][1,2]oxaborol-6-yl)-5-(pyridin-2-yl)-1,3,4-oxadiazole-2-carboxamide]	>7
